Anti-infective test results gathered from many reports (values: NIAID ChemDB through PubChem).

Common to all: tests in culture; agent: Candida albicans; read-out: MIC

Rows are shuffled and stem from different studies.

CCCCCOc1ccc(-c2ccc(-c3ccc(C(=O)N[C@H]4CCCNC(=O)C5C[C@H](N)CN5C(=O)C(CCC[N+](C)(C)C)NC(=O)C(CCc5ccc(O)cc5)NC(=O)C5C[C@@H](O)CN5C(=O)C(C(C)O)NC4=O)cc3)cc2)cc1 ; strain: ATCC 62376 ; result: 0.2 µg/mL
Nc1ncnc2c1ncn2[C@@H]1O[C@H](C(=O)O)[C@@H](NC(=O)[C@H](Cc2ccccc2)NC=O)[C@H]1O ; strain: FP633 ; result: >100 µg/mL
C[C@@H](n1cnc2ccc(F)cc2c1=O)[C@](O)(Cn1cncn1)c1ccc(F)cc1F ; strain: 406 strains ; result: 0.07 µg/mL
Cc1c(S(=O)(=O)c2ccccc2)[n+](=O)c2cc(Cl)ccc2n1[O-] ; strain: Clinical isolate 12 ; result: 31.25 µg/mL
Clc1ccc(C(Cn2ccnc2)OCc2ccc(-c3ccccc3)cc2)c(Cl)c1 ; strain: 5M ; result: 128 µg/mL
C[C@H]1[C@H](O)[C@@H](C)/C=C/C=C/C=C/C=C/C=C/C=C/C=C/[C@H](O[C@@H]2O[C@H](C)[C@@H](O)[C@H](N)[C@@H]2O)C[C@@H]2O[C@](O)(C[C@@H](O)C[C@@H](O)CC[C@H](O)[C@@H](O)C[C@@H](O)CC(=O)O[C@H]1C)C[C@H](O)[C@H]2C(=O)O ; strain: ATCC64552 ; result: 1 µg/mL
CCCCCCCCOc1ccc(-c2ccc(-c3ccc(CN[C@H]4CCCNC(=O)C5C[C@H](N)CN5C(=O)C(C(C)O)NC(=O)C(CCc5ccc(O)cc5)NC(=O)C5C[C@@H](O)CN5C(=O)C(C(C)O)NC4=O)cc3)cc2)cc1 ; strain: ATCC 10231 ; result: 0.2 µg/mL
CCCC(O)C/C=C\C=C\C(=O)OC[C@H]1O[C@@H](O[C@@H]2[C@H](OC(=O)/C=C/C=C/CC(O)/C(C)=C/C=C/CCC(C)CC)[C@@H](O)[C@]3(OCc4cc(O)cc(O)c43)O[C@@H]2CO)[C@H](O)[C@@H](O)[C@H]1O ; strain: MY1585 ; result: 1 µg/mL
CCCCCOc1ccc(-c2ccc(-c3ccc(C(=O)N[C@H]4CCCNC(=O)[C@@H]5C[C@H](N)CN5C(=O)CNC(=O)C(CCc5ccc(O)cc5)NC(=O)[C@@H]5C[C@@H](O)CN5C(=O)[C@H]([C@@H](C)O)NC4=O)cc3)cc2)cc1 ; strain: ATCC 62376 ; result: 0.2 µg/mL
Cc1c(Sc2ccccc2)[n+](=O)c2cc(Cl)ccc2n1[O-] ; strain: Clinical isolate 2 ; result: 62.5 µg/mL
CCCCCCCCN[C@H]1C[C@H]2C(=O)NCCC[C@H](NC(=O)c3ccc(-c4ccc(-c5ccc(OCCCCC)cc5)cc4)cc3)C(=O)N[C@@H]([C@@H](C)O)C(=O)N3C[C@H](O)C[C@H]3C(=O)N[C@@H](CCc3ccc(O)cc3)C(=O)N[C@@H]([C@@H](C)O)C(=O)N2C1 ; strain: ATCC 38247 ; result: 50 µg/mL
Cc1ccc2ncn([C@H](C)[C@](O)(Cn3cncn3)c3ccc(F)cc3F)c(=O)c2c1 ; strain: 60 strains ; result: 0.07 µg/mL
CCC(C)n1ncn(-c2ccc(N3CCN(c4ccc(OC[C@H]5CO[C@](Cn6cncn6)(c6ccc(Cl)cc6Cl)O5)cc4)CC3)cc2)c1=O ; strain: B59630 ; result: >4 µg/mL
Cc1c(S(=O)(=O)c2ccccc2)[n+](=O)c2ccccc2n1[O-] ; strain: Clinical isolate 17 ; result: 15.6 µg/mL
CC(/C=C/C=C(\C)C(O)C(C)C(=O)O[C@H]1C[C@@H](C)C=C2C=C[C@@](C)(O)[C@](C)(C(=O)CCO)[C@H]21)=C\C=C\C(=O)O ; strain: ATCC 62376 ; result: 50 µg/mL
CCOc1cc2c(cc1F)n([O-])c(C)c(Cl)[n+]2=O ; strain: Clinical isolate 7 ; result: 15.6 µg/mL
CCC(C)CC(C)CCCCCCCCC(=O)NC1C[C@H](O)[C@@H](O)NC(=O)[C@@H]2[C@@H](O)[C@@H](C)CN2C(=O)[C@H]([C@H](O)CC(N)=O)NC(=O)[C@H](C(O)[C@H](O)c2ccc(O)cc2)NC(=O)[C@@H]2C[C@@H](O)CN2C(=O)[C@H]([C@@H](C)O)NC1=O ; strain: MY1750 ; result: 1 µg/mL
CCCCCOc1ccc(-c2ccc(-c3ccc(C(=O)N[C@H]4CCCNC(=O)C5C[C@H](N)CN5C(=O)C(C(C)C)NC(=O)C(CCc5ccc(O)cc5)NC(=O)C5C[C@@H](O)CN5C(=O)C(C(C)O)NC4=O)cc3)cc2)cc1 ; strain: ATCC CCH442 ; result: 12.5 µg/mL
NC(=NC1CCCC1)c1ccc(-c2ccc(-c3ccc(C(N)=NC4CCCC4)cc3)o2)cc1 ; strain: A39 ; result: 6.25 µg/mL
CC(C)(C)c1ccc(COC(Cn2ccnc2)c2ccc(Cl)cc2)cc1 ; strain: 5M ; result: >128 µg/mL
CCCCCOc1ccc(-c2ccc(-c3ccc(C(=O)N[C@H]4CCCNC(=O)[C@@H]5C[C@H](NC)CN5C(=O)[C@H]([C@@H](C)O)NC(=O)[C@H](CCc5ccc(O)cc5)NC(=O)[C@@H]5C[C@@H](O)CN5C(=O)[C@H]([C@@H](C)O)NC4=O)cc3)cc2)cc1 ; strain: ATCC 38247 ; result: 0.39 µg/mL
CCCCCCCCN1CCN(c2ccc(C(=O)N[C@H]3CCCNC(=O)C4C[C@H](N)CN4C(=O)C(C(C)O)NC(=O)C(CCc4ccc(O)cc4)NC(=O)C4C[C@@H](O)CN4C(=O)C(C(C)O)NC3=O)cc2)CC1 ; strain: ATCC CCH442 ; result: 1.56 µg/mL
Cc1c(O)cccc1C(=O)N[C@@H](CSc1ccccc1)[C@H](O)CN1C[C@H]2CCCC[C@H]2C[C@H]1C(=O)NC(C)(C)C ; strain: I42A ; result: 64 µg/mL
CCCCCOc1ccc(-c2ccc(-c3ccc(C(=O)N[C@H]4CCCNC(=O)C5C[C@H](NS(C)(=O)=O)CN5C(=O)C(C(C)O)NC(=O)C(CCc5ccc(O)cc5)NC(=O)C5C[C@@H](O)CN5C(=O)C(C(C)O)NC4=O)cc3)cc2)cc1 ; strain: ATCC CCH442 ; result: 0.2 µg/mL
c1ccc(C(Cn2ccnc2)OCc2cccc3ccccc23)cc1 ; strain: CDCB385 ; result: 128 µg/mL
C[C@@H](O)[C@@H]1NC(=O)[C@H](CCc2ccc(O)cc2)NC(=O)[C@@H]2C[C@@H](O)CN2C(=O)[C@H]([C@@H](C)O)NC(=O)[C@@H](NC(=O)c2ccc(N3CCN(c4ccc(O)cc4)CC3)cc2)CCCNC(=O)[C@@H]2C[C@H](N)CN2C1=O ; strain: ATCC 62376 ; result: 25 µg/mL
Nc1ncnc2c1ncn2[C@@H]1O[C@H](C(=O)O)[C@@H](NC(=O)C(N)Cc2ccc([N+](=O)[O-])cc2)[C@H]1O ; strain: FP633 ; result: 50 µg/mL
Clc1ccc(C(Cn2ccnc2)OC/C=C/c2ccccc2)cc1 ; strain: 5M ; result: >128 µg/mL
CCCCCCCCCCCCCCCC(=O)N[C@H]1CCCNC(=O)C2C[C@H](N)CN2C(=O)C(C(C)O)NC(=O)C(CCc2ccc(O)cc2)NC(=O)C2C[C@@H](O)CN2C(=O)C(C(C)O)NC1=O ; strain: ATCC 10231 ; result: 0.78 µg/mL
Nc1ncnc2c1ncn2[C@@H]1O[C@H](C(=O)O)[C@@H](NC(=O)C(N)Cc2cc[nH]c2)[C@H]1O ; strain: FP633 ; result: 100 µg/mL
CCCCCOc1ccc(-c2ccc(-c3ccc(C(=O)N[C@H]4CCCNC(=O)[C@@H]5CCCN5C(=O)[C@H]([C@@H](C)O)NC(=O)[C@H](CCc5ccc(O)cc5)NC(=O)[C@@H]5C[C@@H](O)CN5C(=O)[C@H]([C@@H](C)O)NC4=O)cc3)cc2)cc1 ; strain: ATCC 62376 ; result: 3.12 µg/mL
C[C@H]1[C@H](O)[C@@H](C)/C=C/C=C/C=C/C=C/C=C/C=C/C=C/[C@H](O[C@@H]2O[C@H](C)[C@@H](O)[C@H](N)[C@@H]2O)C[C@@H]2O[C@](O)(C[C@@H](O)C[C@@H](O)CC[C@H](O)[C@@H](O)C[C@@H](O)CC(=O)O[C@H]1C)C[C@H](O)[C@H]2C(=O)O ; strain: DARL82/003 (azole-resistant) ; result: 0.5 µg/mL
CCCCCOc1ccc(-c2ccc(-c3ccc(C(=O)N[C@H]4CCCNC(=O)C5C[C@H](NC(=O)OC)CN5C(=O)C(C(C)O)NC(=O)C(CCc5ccc(O)cc5)NC(=O)C5C[C@@H](O)CN5C(=O)C(C(C)O)NC4=O)cc3)cc2)cc1 ; strain: ATCC 10231 ; result: 0.78 µg/mL
C[C@@H](n1cnc2cccc(F)c2c1=O)[C@](O)(Cn1cncn1)c1ccc(F)cc1F ; strain: 406 strains ; result: 0.15 µg/mL
C(=C\c1ccccc1)/COC(Cn1ccnc1)c1ccccc1 ; strain: CA2 ; result: 128 µg/mL
C[C@@H](n1ncn(-c2ccc(OCC(F)(F)C(F)F)cc2)c1=O)[C@](O)(Cn1cncn1)c1ccc(F)cc1F ; strain: 60 strains ; result: 0.07 µg/mL
Nc1ncnc2c1ncn2[C@@H]1O[C@H](C(=O)O)[C@@H](NC(=O)C(N)CSCc2ccncc2)[C@H]1O ; strain: FP633 ; result: 0.8 µg/mL
CCOc1cc2c(cc1F)n([O-])c(C)c(S(=O)(=O)c1ccccc1)[n+]2=O ; strain: Clinical isolate 17 ; result: 31.25 µg/mL
CCCCCOc1ccc(-c2ccc(C(=O)N[C@H]3CCCNC(=O)C4C[C@H](N)CN4C(=O)C(C(C)O)NC(=O)C(CCc4ccc(O)cc4)NC(=O)C4C[C@@H](O)CN4C(=O)C(C(C)O)NC3=O)cc2)cc1 ; strain: ATCC 10231 ; result: 0.39 µg/mL
CCCCCOc1ccc(-c2ccc(-c3ccc(C(=O)N[C@H]4CCCNC(=O)[C@@H]5C[C@H](N)CN5C(=O)[C@H](CO)NC(=O)C(CCc5ccc(O)cc5)NC(=O)[C@@H]5C[C@@H](O)CN5C(=O)[C@H]([C@@H](C)O)NC4=O)cc3)cc2)cc1 ; strain: ATCC 62376 ; result: 0.1 µg/mL
O[C@](Cn1cncn1)(Cn1cnc(/C=C/c2ccc(OCC(F)(F)C(F)F)cc2)n1)c1ccc(F)cc1F ; strain: Isolate 06-1 ; result: 4 µg/mL
CCCCCOc1ccc(-c2ccc(-c3ccc(C(=O)N[C@H]4CCCNC(=O)[C@@H]5C[C@H](N)CN5C(=O)[C@H]([C@@H](C)O)NC(=O)[C@H](CCc5ccccc5)NC(=O)[C@@H]5C[C@@H](O)CN5C(=O)[C@H]([C@@H](C)O)NC4=O)cc3)cc2)cc1 ; strain: ATCC 38247 ; result: 3.12 µg/mL
C[C@@H](n1cnc2cc(Cl)ccc2c1=O)[C@](O)(Cn1cncn1)c1ccc(Cl)cc1Cl ; strain: 76 strains ; result: 0.07 µg/mL
CS(=O)CC[C@H](N)C(=O)N[C@H]1[C@@H](O)[C@H](n2cnc3c(N)ncnc32)O[C@@H]1C(=O)O ; strain: FP633 ; result: >100 µg/mL

For reference, 4 entries again:

{"compound": "CCCCCOc1ccc(-c2ccc(-c3ccc(C(=O)N[C@H]4CCCNC(=O)[C@@H]5C[C@H](NC)CN5C(=O)[C@H]([C@@H](C)O)NC(=O)[C@H](CCc5ccc(O)cc5)NC(=O)[C@@H]5C[C@@H](O)CN5C(=O)[C@H]([C@@H](C)O)NC4=O)cc3)cc2)cc1", "strain": "ATCC 38247", "result": "0.39 µg/mL"}
{"compound": "Clc1ccc(C(Cn2ccnc2)OC/C=C/c2ccccc2)cc1", "strain": "5M", "result": ">128 µg/mL"}
{"compound": "CCCCCOc1ccc(-c2ccc(-c3ccc(C(=O)N[C@H]4CCCNC(=O)[C@@H]5C[C@H](N)CN5C(=O)CNC(=O)C(CCc5ccc(O)cc5)NC(=O)[C@@H]5C[C@@H](O)CN5C(=O)[C@H]([C@@H](C)O)NC4=O)cc3)cc2)cc1", "strain": "ATCC 62376", "result": "0.2 µg/mL"}
{"compound": "CCCCCCCCN1CCN(c2ccc(C(=O)N[C@H]3CCCNC(=O)C4C[C@H](N)CN4C(=O)C(C(C)O)NC(=O)C(CCc4ccc(O)cc4)NC(=O)C4C[C@@H](O)CN4C(=O)C(C(C)O)NC3=O)cc2)CC1", "strain": "ATCC CCH442", "result": "1.56 µg/mL"}